Pooled drug test results. Numbers come from NIAID ChemDB, via PubChem.

Common to all: host cell toxicity; cells: C8166; read by: MTT; read-out: CC50

Conditions beyond the fields shown may differ between rows.

SMILES,value
CCO[C@H]1c2cc(O)c(OC)c(OC)c2-c2c(cc(O)c(OC)c2OC)C[C@H](C)[C@@H]1C,>200 µg/mL
Nc1ccn([C@@H]2CS[C@H](CO)O2)c(=O)n1,>200 µM
COc1cc2c(c(OC)c1OC)-c1c(cc3c(c1OC)OCO3)[C@H](OC(=O)c1ccccc1)[C@@](C)(O)[C@@H](C)C2,72.44 µg/mL
CC/C=C\C/C=C\C/C=C\C/C=C\C/C=C\CCCC(=O)OCC1=C[C@H]2[C@@H]3C(C)(C)[C@]3(OC(=O)CCC/C=C\C/C=C\C/C=C\C/C=C\C/C=C\CC)[C@H](OC(=O)CCC/C=C\C/C=C\C/C=C\C/C=C\C/C=C\CC)[C@@H](C)[C@]2(O)[C@@H]2C=C(C)C(=O)[C@@]2(O)C1,130 µM
O=[N+]([O-])c1cc(S(=O)(=O)Oc2ccc(N=Nc3ccc(N=Nc4ccc(OS(=O)(=O)c5ccc(Cl)c([N+](=O)[O-])c5)c5ncccc45)cc3)c3cccnc23)ccc1Cl,13.14 µg/mL
CN1CCN(c2ccnc3nc(CN(C)C4CCCc5cccnc54)[nH]c23)CC1,5 µM
N#Cc1c(Nc2ccccc2)c(Cl)c2nc(N)nc(N)c2c1F,8.6 µg/mL
CC(=O)O[C@H]1C[C@]2(C)[C@H]3[C@H](OC(=O)c4ccccc4)CC[C@]4(CO4)[C@]3(C)[C@@H](OC(C)=O)C[C@]2(C)O[C@]12COC(=O)C2,>200 µg/mL
CN1CCN(c2ccnc3nc(CN(CCCCN)C4CCCc5cccnc54)[nH]c23)CC1,>10 µM
O=C(NCCO)c1[nH]c2ccc(Cl)cc2c1Sc1ccccc1,>100 µM
Cc1cc(C)cc(S(=O)(=O)c2c(C(=O)/C=C/C(N)=O)[nH]c3ccc(Cl)cc23)c1,>200 µM
COc1cc(C[C@H]2COC[C@@H]2Cc2ccc(O)c(OC)c2)ccc1O,>200 µg/mL
O=[N+]([O-])c1ccc(S(=O)(=O)Oc2ccc(N=Nc3ccc(N=Nc4ccc(OS(=O)(=O)c5ccc([N+](=O)[O-])cc5)c5ncccc45)cc3)c3cccnc23)cc1,40.36 µg/mL
CN1CCN(c2ccnc3nc(CN(C)Cc4ncccc4C4CC4)[nH]c23)CC1,>10 µM
CC/C=C\C/C=C\C/C=C\C/C=C\C/C=C\CCCC(=O)O[C@@H]1[C@@H](C)[C@@]2(O)[C@@H](C=C(CO)C[C@]3(O)C(=O)C(C)=C[C@@H]23)[C@@H]2C(C)(C)[C@]12O,44.8 µM
CC(=O)Nc1ccc(S(=O)(=O)Oc2ccc(N=Nc3ccc(N=Nc4ccc(OS(=O)(=O)c5ccc(NC(C)=O)cc5)c5ncccc45)cc3)c3cccnc23)cc1,37.69 µg/mL
CC(=O)OCC1=C[C@H]2[C@@H]3C(C)(C)[C@]3(O)[C@H](OC(=O)/C=C/c3ccccc3)[C@@H](C)[C@]2(O)[C@@H]2C=C(C)C(=O)[C@@]2(O)C1,108 µM
CCc1c(CC2CCCCC2)nc(SCC(=O)c2ccc(OC(=O)c3ccccc3)cc2)[nH]c1=O,36.85 µM
NC(=O)c1[nH]c2ccc(Cl)cc2c1S(=O)(=O)c1ccccc1,>100 µM
COc1cc([C@H]2O[C@@H](c3ccc(O)cc3)[C@H](C)[C@@H]2C)ccc1O,26.98 µg/mL
CC(=O)O[C@H]1C[C@]2(C)[C@H]3[C@H](OC(C)=O)CC[C@]4(CO4)[C@]3(C)[C@@H](OC(C)=O)[C@H](OC(=O)c3ccccc3)[C@]2(C)O[C@]12COC(=O)C2,>200 µg/mL
O=C(NNCCO)c1[nH]c2ccc(Cl)cc2c1S(=O)(=O)c1ccccc1,>100 µM
COc1cc([C@H]2c3cc(O)c(OC)cc3C[C@H]3COC[C@@H]32)ccc1O,>200 µg/mL
CN1CCN(c2ccnc3nc(CN(CCCCN)Cc4ncccc4Br)[nH]c23)CC1,>10 µM
CC(=O)O[C@@]12[C@H](OC(=O)CCCCCCBr)[C@@H](C)[C@@]3(O)[C@@H](C=C(CO)C[C@]4(O)C(=O)C(C)=C[C@@H]34)[C@@H]1C2(C)C,73.6 µM
Cc1ccccc1Sc1c(C(=O)NNCCO)[nH]c2ccc(Cl)cc12,>100 µM
COc1cc2c(c(OC)c1O)-c1c(cc3c(c1OC)OCO3)C[C@H](C)[C@H](C)[C@@H]2O,>200 µg/mL
COC(=O)C[C@](O)(Cc1ccc(O)c(OC)c1)C(=O)OC,>200 µg/mL
Cc1ccc(S(=O)(=O)c2c(C(=O)NCCO)[nH]c3ccc(Cl)cc23)cc1,>100 µM
COc1cc(C[C@H]2CO[C@H](c3ccc(O[C@@H]4O[C@H](O)[C@@H](O)[C@H](O)[C@H]4O)c(OC)c3)[C@H]2CO)ccc1O,>200 µg/mL
CN(Cc1ncccc1CCC#N)Cc1nc2ccccc2n1Cc1ccccc1,>10 µM
CC/C=C\C/C=C\C/C=C\C/C=C\C/C=C\CCCC(=O)O[C@@H]1[C@@H](C)[C@@]2(O)[C@@H](C=C(CO)C[C@]3(O)C(=O)C(C)=C[C@@H]23)[C@@H]2C(C)(C)[C@]12OC(=O)CCC,23.3 µM
Cc1cccc(Sc2c(C(=O)NCCO)[nH]c3ccc(Cl)cc23)c1,>100 µM
CN1CCN(c2ccnc3nc(CN(CCCCN)Cc4ccccc4C#N)[nH]c23)CC1,>10 µM
CC(=O)O[C@@H]1CC[C@]2(CO2)[C@]2(C)[C@@H](OC(C)=O)[C@H](OC(C)=O)[C@]3(C)O[C@]4(COC(=O)C4)[C@@H](OC(=O)c4ccccc4)C[C@]3(C)[C@@H]12,>200 µg/mL
Cc1ccccc1S(=O)(=O)c1c(C(=O)NCCO)[nH]c2ccc(Cl)cc12,>100 µM
CS(=O)(=O)Oc1ccc(N=Nc2ccc(N=Nc3ccc(OS(C)(=O)=O)c4ncccc34)cc2)c2cccnc12,7.55 µg/mL
CC/C=C\C/C=C\C/C=C\C/C=C\C/C=C\CCCC(=O)O[C@@]12[C@H](O)[C@@H](C)[C@@]3(O)[C@@H](C=C(CO)C[C@]4(O)C(=O)C(C)=C[C@@H]34)[C@@H]1C2(C)C,73 µM
COc1cc2c(c(O)c1OC)-c1c(cc(OC)c(OC)c1O)C[C@H](C)[C@H](C)C2,123 µM

3 of the rows above, restated:

{"SMILES": "CS(=O)(=O)Oc1ccc(N=Nc2ccc(N=Nc3ccc(OS(C)(=O)=O)c4ncccc34)cc2)c2cccnc12", "value": "7.55 µg/mL"}
{"SMILES": "CN1CCN(c2ccnc3nc(CN(C)C4CCCc5cccnc54)[nH]c23)CC1", "value": "5 µM"}
{"SMILES": "CC(=O)OCC1=C[C@H]2[C@@H]3C(C)(C)[C@]3(O)[C@H](OC(=O)/C=C/c3ccccc3)[C@@H](C)[C@]2(O)[C@@H]2C=C(C)C(=O)[C@@]2(O)C1", "value": "108 µM"}

CCn is the concentration with n% toxicity to the cells.